From PMC11436104 (Toxins, 2024)
*1 amine or outer side, *2 acyl side, *3 side chain or, on linkers, in order; H or OH if unused. Where a SMILES comes first, the peptide text is derived from it. Bridges are numbered along the chain shown (N, C = ends). [ ]: non-standard residue; d: D form. Adda = CO[C@@H](Cc1ccccc1)[C@@H](C)/C=C(C)/C=C/[C@H](N[*:1])[C@H](C)C(=O)[*:2]; dAsp(3S-Me) = C[C@H](C(=O)[*:3])[C@@H](N[*:1])C(=O)[*:2]; d(γGlu) = O=C(O)[C@@H](CCC(=O)[*:2])N[*:1]; NMeDha = C=C(NC)C(=O)O

Key:
[1] = target: T1, Ser/Thr protein phosphatase type-1 (PP1; α isoform catalytic subunit) (Oryctolagus cuniculus, UniProt P62139); experiment: Colorimetric protein phosphatase inhibition assay, p-nitrophenyl phosphate substrate; assay type: biochemical, rabbit
T1 construct: purchased Sigma 539493; host or cells: Escherichia coli

[2] = target: T2, Ser/Thr protein phosphatase type-2A (PP2A) (Bos taurus, UniProt P67774); experiment: as above; assay type: biochemical, bovine
T2 construct: PP2A; from bovine kidney; purchased Sigma P1868; host or cells: bovine kidney (tissue-purified)

## C=C1C(=O)N[C@H](C)C(=O)N[C@@H](CC(C)C)C(=O)N[C@@H](C(=O)O)[C@H](C)C(=O)N[C@@H](CCCNC(=N)N)C(=O)N[C@@H](/C=C/C(C)=C/[C@H](C)[C@H](Cc2ccccc2)OC)[C@H](C)C(=O)N[C@@H](C(=O)O)CCC(=O)N1C [MC-LR, Microcystin-LR, reference compound] (R[Adda][d(γGlu)][NMeDha][dA]L[dAsp(3S-Me)]-OH; lactam N-7)
[1]
  fold lower PP1 IC50 than PP BL1125: 25,000 fold
[2]
  fold lower PP2A IC50 than PP BL1125: at least 370,000 fold
